Test results as given in patent US7319143.

Target: mouse H-2K^k class I heavy chain (endogenous, on MD45 cells) (mouse)
Experiment: cell-based or functional assay

Q: How did the IL-2 (CTL-L bioassay, MTT O.D.) after immobilized anti-H-2K^k mAb; clone 798-1 turn out when “chimeric hemagglutinin (Ha) peptide/hβ2m/ζ polypeptide (clone 407-4) (from UniProt P61769 21-119; P24161 31-164)” was run?
A: 0.011 O.D.

Q: And the IL-2 (CTL-L bioassay, MTT O.D.) after immobilized anti-H-2K^k mAb; clone 798-2?
A: 0.078 O.D.

Q: What about the IL-2 (CTL-L bioassay, MTT O.D.) after immobilized anti-H-2K^k mAb; clone 798-3 of the same substance?
A: 0.013 O.D.

Q: What about the IL-2 (CTL-L bioassay, MTT O.D.) after immobilized anti-H-2K^k mAb; clone 798-4 of the same substance?
A: 0.009 O.D.

Q: And the IL-2 (CTL-L bioassay, MTT O.D.) after immobilized anti-H-2K^k mAb; clone 798-5?
A: 0.008 O.D.

Q: What about the IL-2 (CTL-L bioassay, MTT O.D.) after immobilized anti-H-2K^k mAb; clone 798-6 of the same substance?
A: 0.007 O.D.

Q: What about the IL-2 (CTL-L bioassay, MTT O.D.) after immobilized anti-H-2K^k mAb; clone 798-7 of the same substance?
A: 0.011 O.D.

Q: And the IL-2 (CTL-L bioassay, MTT O.D.) after immobilized anti-H-2K^k mAb; clone 798-8?
A: 0.008 O.D.

Q: What about the IL-2 (CTL-L bioassay, MTT O.D.) after immobilized anti-H-2K^k mAb; clone 798-9 of the same substance?
A: 0.048 O.D.

Q: What about the IL-2 (CTL-L bioassay, MTT O.D.) after immobilized anti-H-2K^k mAb; clone 798-10 of the same substance?
A: 0.008 O.D.

Q: And the IL-2 (CTL-L bioassay, MTT O.D.) after immobilized anti-H-2K^k mAb; clone 798-11?
A: 0.005 O.D.

Q: What about the IL-2 (CTL-L bioassay, MTT O.D.) after immobilized anti-H-2K^k mAb; clone 798-12 of the same substance?
A: 0.006 O.D.

Q: And the IL-2 (CTL-L bioassay, MTT O.D.) after immobilized anti-H-2K^k mAb; clone 798-13?
A: 0.011 O.D.

Q: And the IL-2 (CTL-L bioassay, MTT O.D.) after immobilized anti-H-2K^k mAb; clone 798-14?
A: 0.007 O.D.

Q: What about the IL-2 (CTL-L bioassay, MTT O.D.) after immobilized anti-H-2K^k mAb; clone 798-15 of the same substance?
A: 0.009 O.D.

Q: And the IL-2 (CTL-L bioassay, MTT O.D.) after immobilized anti-H-2K^k mAb; clone 798-16?
A: 0.069 O.D.

Q: What about the IL-2 (CTL-L bioassay, MTT O.D.) after immobilized anti-H-2K^k mAb; clone 798-17 of the same substance?
A: 0.019 O.D.

Q: And the IL-2 (CTL-L bioassay, MTT O.D.) after immobilized anti-H-2K^k mAb; clone 798-18?
A: 0.082 O.D.

Q: And the IL-2 (CTL-L bioassay, MTT O.D.) after immobilized anti-H-2K^k mAb; clone 798-19?
A: 0.052 O.D.

Q: What about the IL-2 (CTL-L bioassay, MTT O.D.) after immobilized anti-H-2K^k mAb; clone 798-20 of the same substance?
A: 0.006 O.D.

Q: What about the IL-2 (CTL-L bioassay, MTT O.D.) after immobilized anti-H-2K^k mAb; clone 798-21 of the same substance?
A: 0.12 O.D.

Q: What about the IL-2 (CTL-L bioassay, MTT O.D.) after immobilized anti-H-2K^k mAb; clone 798-22 of the same substance?
A: 0.01 O.D.

Q: And the IL-2 (CTL-L bioassay, MTT O.D.) after immobilized anti-H-2K^k mAb; clone 798-23?
A: 0 O.D.

Q: For “chimeric nucleoprotein (NP) peptide/hβ2m/ζ polypeptide (clone 406-20) (from UniProt P61769 21-119; P24161 31-164)”, which IL-2 (CTL-L bioassay, MTT O.D.) after immobilized anti-H-2K^k mAb; clone 797-2 is on record?
A: 0.003 O.D.

Q: What about the IL-2 (CTL-L bioassay, MTT O.D.) after immobilized anti-H-2K^k mAb; clone 797-3 of the same substance?
A: 0.162 O.D.

Q: And the IL-2 (CTL-L bioassay, MTT O.D.) after immobilized anti-H-2K^k mAb; clone 797-5?
A: 0.001 O.D.

Q: What about the IL-2 (CTL-L bioassay, MTT O.D.) after immobilized anti-H-2K^k mAb; clone 797-6 of the same substance?
A: 0.002 O.D.

Q: And the IL-2 (CTL-L bioassay, MTT O.D.) after immobilized anti-H-2K^k mAb; clone 797-7?
A: 0.007 O.D.

Q: And the IL-2 (CTL-L bioassay, MTT O.D.) after immobilized anti-H-2K^k mAb; clone 797-8?
A: 0.004 O.D.

Q: And the IL-2 (CTL-L bioassay, MTT O.D.) after immobilized anti-H-2K^k mAb; clone 797-9?
A: 0.024 O.D.

Q: What about the IL-2 (CTL-L bioassay, MTT O.D.) after immobilized anti-H-2K^k mAb; clone 797-10 of the same substance?
A: 0.161 O.D.

Q: What about the IL-2 (CTL-L bioassay, MTT O.D.) after immobilized anti-H-2K^k mAb; clone 797-11 of the same substance?
A: 0.008 O.D.

Q: And the IL-2 (CTL-L bioassay, MTT O.D.) after immobilized anti-H-2K^k mAb; clone 797-12?
A: 0.005 O.D.

Q: What about the IL-2 (CTL-L bioassay, MTT O.D.) after immobilized anti-H-2K^k mAb; clone 797-13 of the same substance?
A: 0.008 O.D.

Q: What about the IL-2 (CTL-L bioassay, MTT O.D.) after immobilized anti-H-2K^k mAb; clone 797-15 of the same substance?
A: 0.01 O.D.

Q: And the IL-2 (CTL-L bioassay, MTT O.D.) after immobilized anti-H-2K^k mAb; clone 797-16?
A: 0.039 O.D.

Q: And the IL-2 (CTL-L bioassay, MTT O.D.) after immobilized anti-H-2K^k mAb; clone 797-17?
A: 0.004 O.D.

Q: And the IL-2 (CTL-L bioassay, MTT O.D.) after immobilized anti-H-2K^k mAb; clone 797-18?
A: 0.113 O.D.

Q: What about the IL-2 (CTL-L bioassay, MTT O.D.) after immobilized anti-H-2K^k mAb; clone 797-19 of the same substance?
A: 0.006 O.D.

Q: What about the IL-2 (CTL-L bioassay, MTT O.D.) after immobilized anti-H-2K^k mAb; clone 797-20 of the same substance?
A: 0.02 O.D.

Q: What about the IL-2 (CTL-L bioassay, MTT O.D.) after immobilized anti-H-2K^k mAb; clone 797-21 of the same substance?
A: 0.011 O.D.

Q: What about the IL-2 (CTL-L bioassay, MTT O.D.) after immobilized anti-H-2K^k mAb; clone 797-22 of the same substance?
A: 0.02 O.D.

Q: What about the IL-2 (CTL-L bioassay, MTT O.D.) after immobilized anti-H-2K^k mAb; clone 797-23 of the same substance?
A: 0.008 O.D.

Q: What about the IL-2 (CTL-L bioassay, MTT O.D.) after immobilized anti-H-2K^k mAb; clone 797-24 of the same substance?
A: 0.05 O.D.
